A mixed list of measured activities; the numbers were collected in NIAID ChemDB.

Shared fields: whole-cell or culture tests; agent: Human cytomegalovirus

Neighbouring rows are from separate reports.

compound | read-out | cells | read by | strain | result
Nc1nc2c(ncn2COC(CO)CO)c(=O)[nH]1 | EC50 | HFF | plaque count | C4 (BDCRB- maribavir-resistant) | 12 µM
CCCCCCCCCCCCCCCCCCOCCOP(=O)(O)CO[C@H](CO)Cn1ccc(N)nc1=O | EC50 | MRC-5 | plaque count | GDGP53 (drug-resistant mutant) | 0.02 µM
Nc1nc2c(ncn2[C@H]2C=C[C@@H](CO)CC2)c(=O)[nH]1 | EC50 | VERO | cytopathic effect |  | 1–10 µM
CCCCCCCC/C=C/CCCCCCCC(=O)O | EC50 | HEL | cytopathic effect | AD169 | >100 µM
O=C1NCc2ccccc2OCC/C=C/c2cncc3ccc1nc23 | EC50 | MRC-5 | plaque count | D16 (ganciclovir-resistant UL54 mutant) | 0.0056 µg/mL
Cc1ccn2c(C3OCCO3)cnc2c1 | EC50 | HEL |  | AD169 | >116 µM
Nc1nc(N)c2ncn(C=C3CC3CO)c2n1 | EC50 | HFF |  | AD169 | 16 µM
O[C@@H]1[C@H](O)CO[C@H]1n1c(Cl)nc2cc(Cl)c(Cl)cc21 | EC90 | HFF | virus yield | TOWNE | 0.5 µM
Cc1cn(COC(CO)CO)c2ncnc(N)c12 | EC90 | HFF | virus yield | TOWNE | >100 µM
Nc1nc2c(ncn2[C@@H]2C[C@H](CO)[C@H]2CO)c(=O)[nH]1 | EC50 | VERO | cytopathic effect |  | 1–10 µM
O[C@@H]1[C@H](O)[C@H](O)CO[C@H]1n1c(Br)nc2cc(Cl)c(Cl)cc21 | EC50 | MRC-5 | plaque count | 1117/R (K513N) | 1.2 µM
Cc1cccn2c(C3OCCO3)cnc12 | EC50 | HEL |  | DAVIS | >116 µM
C/C(=N/Nc1nc(-c2ccc(Br)cc2)cs1)c1ccc(NC(=O)CN2C(=O)c3ccccc3S2(=O)=O)cc1 | EC50 | HEL | plaque count | DAVIS | 20 µM
CN[C@H]1C[C@@H](n2cnc3c(N)ncnc32)[C@H](O)[C@@H]1O | EC50 | HFF |  |  | 45.1 µg/mL
Nc1ncnc2c1ncn2C[C@@H](CO)OCP(=O)(O)O | EC50 | HEL | plaque count | AD169 | 0.21 µM
CC1(C)OC2C(O1)[C@H](c1cccc3nccn13)O[C@@H]2CO[Si](C)(C)C(C)(C)C | EC50 |  | plaque count |  | >100 µM
Nc1nccc2c1ncn2[C@@H]1C[C@H](CO)[C@@H](O)[C@H]1O | EC50 | HEL | cytopathic effect | AD169 | 7 µg/mL
O=c1[nH]c(=O)n([C@H]2CO[C@H](CO)S2)cc1/C=C/Br | EC50 |  |  | WFI | >100 µg/mL
C[C@@H]1O[C@@H](n2c(Cl)nc3cc(Cl)c(Cl)cc32)[C@H](O)[C@@H]1O | EC50 |  | plaque count | AD169 | 0.82 µM
CC(NC(=S)Nc1ccc(NC(=O)c2nccc3ccccc23)cc1)c1cc2ccccc2o1 | EC50 | HFF | ELISA | AD169 | >10 µg/mL
CC(=O)Oc1ccc([C@@H]2CC(=O)c3c(cc(OC(C)=O)c(-c4c(OC(C)=O)cc5c(c4OC(C)=O)C(=O)C[C@@H](c4ccc(OC(C)=O)cc4)O5)c3OC(C)=O)O2)cc1 | EC50 | HFF | cytopathic effect |  | >4 µg/mL
CCCCCCCCCCCCCCCCCCOCCOP1(=O)CO[C@@H](Cn2ccc(N)nc2=O)CO1 | EC50 | MRC-5 | plaque count | WILD TYPE | 0.0015 µM
O=C(Nc1cccc(Cl)c1)Nc1cccc(-c2n[nH]c(=O)n2C2CCCCC2)c1 | EC50 | NHDF | cytopathic effect |  | 0.3 µM
Nc1ncnc2c1c(Cl)cn2COC(CO)CO | EC50 | HFF | virus yield | TOWNE | <8 µM
Nc1ccn(C[C@@H](CO)OCP(=O)(O)O)c(=O)n1 | EC50 | HEL | plaque count | AD169 | 0.25 µg/mL
CC(C)(C)[Si](OC[C@H]1C[C@@H](Cn2cnc3c(Cl)nc(N)nc32)c2cn(Cc3ccccc3)nc21)(c1ccccc1)c1ccccc1 | EC50 | HEL |  | DAVIS | 0.39 µM
Cc1ccn2c(CSCc3ccccc3)c(C3CC3C)nc2c1 | EC50 | HEL | cytopathic effect | AD169 | 2 µg/mL
CC1(C)OC2C(O1)[C@H](c1c(Cl)c(Cl)cc3nc(Cl)cn13)O[C@@H]2CO[Si](C)(C)C(C)(C)C | EC50 |  | plaque count |  | >100 µM
Nc1nccc2c1ncn2C[C@@H](CO)OCP(=O)(O)O | EC50 | HEL | plaque count | AD169 | 0.18 µM
CCCCCCCCCCCCCCCCOCCCOP(=O)(O)CO[C@H](CO)Cn1ccc(N)nc1=O | EC50 | MRC-5 | plaque count | C8708/17-1-1 | 0.001 µM
Nc1nc2c(ncn2[C@@H]2C=C[C@H](CO)CC2)c(=O)[nH]1 | EC50 | VERO | cytopathic effect |  | 1–10 µM
O=c1[nH]c(=O)n([C@H]2C[C@H](O)[C@@H](CO)O2)cc1/C=C/Br | EC50 | HEL | cytopathic effect | DAVIS | >50 µM
CC1(C)C(=O)NN=C1c1cccc(NC(=O)Nc2ccc(F)c(F)c2)c1 | EC50 | NHDF | cytopathic effect |  | 0.5 µM
COC(=O)C(C)NP(=O)(OC[C@@H]1C/C1=C\n1cc(C)c(=O)[nH]c1=O)Oc1ccccc1 | EC50 | HFF | cytopathic effect | AD169 | 243 µM
O=c1[nH]c(=O)n([C@H]2CO[C@H](CO)O2)cc1/C=C/Br | EC50 |  |  | WFI | >30 µg/mL
CC(=O)O[C@]1(c2c(Cl)ccc3nc(Cl)cn23)O[C@H](CO[Si](C)(C)C(C)(C)C)C2OC(C)(C)OC21 | EC50 |  | plaque count |  | >100 µM
NC(=S)N/N=C/c1ncnc2nc[nH]c12 | EC75 | WI-38 | cytopathic effect |  | <100 µg/mL
Cc1cccn2c(CSCc3ccccc3)cnc12 | EC50 | HEL | cytopathic effect | AD169 | 0.12 µg/mL
Nc1nc2ncn(CCOCP(=O)(O)O)c2c(=O)[nH]1 | EC50 | HEL | plaque count | AD169 | 2 µg/mL
CC1(C)OC2C(O1)[C@H](c1c(Cl)ccc3nc(Cl)cn13)O[C@@H]2CO[Si](C)(C)C(C)(C)C | EC50 |  | plaque count |  | >100 µM
OCC(CO)OCn1cc(Br)c2c(NO)ncnc21 | EC50 | HFF | virus yield | TOWNE | <10 µM
O=c1[nH]c(=O)n([C@@H]2CO[C@H](CO)O2)cc1/C=C/Br | EC50 |  |  | WFI | 5 µg/mL
Nc1nc(=S)c2ncn([C@@H]3O[C@H](CO)[C@@H](O)[C@H]3O)c2[nH]1 | EC50 | WI-38 | cytopathic effect |  | 10 µg/mL
Cc1ccn2c(C3SCCS3)cnc2c1 | EC50 | HEL |  | DAVIS | 64 µM
CN(C)c1cccc2c(S(=O)(=O)Nc3ccc(NC(=O)C(C)(C)CO)cc3)cccc12 | EC50 | HFF | plaque count | Isolate Helebrand (wild type) | 1.21 µM
CCCCCC#Cc1c[nH]c(=O)[nH]c1=O | EC50 | HEL | cytopathic effect | AD169 | >400 µM
CC(C)NS(=O)(=O)c1ccccc1C(=O)NNC(=O)c1ccc(Cl)cc1 | EC50 | HEL | plaque count | AD169 | >100 µM
COC(=O)C(C)NP(=O)(OC[C@@H]1C/C1=C/n1cc(C)c(=O)[nH]c1=O)Oc1ccccc1 | EC50 | HFF | plaque count | TOWNE | >100 µM
O=c1[nH]c(=O)n([C@H]2CO[C@@H](CO)S2)cc1/C=C/Br | EC50 |  |  | WFI | >100 µg/mL
Cc1ccn2c(CSCc3ccccc3)cnc2c1 | EC50 | HEL | cytopathic effect | AD169 | 3.5 µg/mL
CC/C=C\Cn1c(=O)sc2c(=O)[nH]c(N)nc21 | EC50 |  | plaque count | D16 (DHPG-R) | <0.4 µM
Nc1nc2c(ncn2CC(CO)OCP(=O)(O)O)c(=O)[nH]1 | EC50 | HEL | plaque count | DAVIS | 0.7 µg/mL
Cn1cnc([N+](=O)[O-])c1Sc1nc(N)nc2nc[nH]c12 | EC50 | WI-38 | cytopathic effect |  | <10 µg/mL
CCCCCCCCCCC#Cc1cn(S(=O)(=O)c2ccc(C)cc2)c(=O)[nH]c1=O | EC50 | HEL | cytopathic effect | DAVIS | >80 µM
Nc1nc2c(ncn2[C@@H]2C[C@H](CO)[C@H]2CO)c(=O)[nH]1 | EC50 | HFF | plaque count | Isolate Helebrand (wild type) | 6.24 µM
CCCCCCCc1cc2cnc(=O)[nH]c2o1 | EC50 | HEL | cytopathic effect | DAVIS | >400 µM
CN(C)c1cccc2c(S(=O)(=O)Nc3ccc(NC(=O)C(C)(C)CO)cc3)cccc12 | EC50 |  | plaque count | 36 isolates | 1 µM
Cc1ccn2c(CSCc3ccccc3)c(-c3ccco3)nc2c1 | EC50 | HEL | cytopathic effect | DAVIS | >50 µg/mL
Nc1ccn(C[C@H]2COP(=O)(O)CO2)c(=O)n1 | EC50 | HEL | hybridisation | AD169 | 0.1 µM
CCCCCC#Cc1cn(S(=O)(=O)c2ccc(C)cc2)c(=O)[nH]c1=O | EC50 | HEL | cytopathic effect | AD169 | >80 µM
C=C1[C@H](CO)[C@H]1Cn1cnc2c(Cl)nc(N)nc21 | EC50 |  |  |  | >100 µM
Nc1ncnc2c1ncn2[C@@H]1O[C@H](CO)[C@@H](O)[C@@H]1O | EC50 | WI-38 | cytopathic effect |  | <32 µg/mL
CC(C)Nc1nc2cc(Cl)c(Cl)cc2n1[C@H]1O[C@@H](CO)[C@H](O)[C@@H]1O | EC50 | MRC-5 | virus yield | AD169 | 0.06 µM
CC(C)NS(=O)(=O)c1ccccc1C(=O)N/N=C/c1ccccc1 | EC50 | HEL | plaque count | DAVIS | >100 µM
CCCCCCCCC#Cc1cn(S(=O)(=O)c2ccc(C)cc2)c(=O)[nH]c1=O | EC50 | HEL | cytopathic effect | DAVIS | >16 µM
CC(=O)c1ccc(NC(=O)CN2C(=O)c3ccccc3S2(=O)=O)cc1 | EC50 | HEL | plaque count | DAVIS | >100 µM
COC(=O)[C@H](C)NP(=O)(OCC1C/C1=C/n1cnc2c(=O)[nH]c(N)nc21)Oc1ccccc1 | EC50 | HFF |  | AD169 | 25 µM
Nc1nc2c(ncn2COC(CO)CO)c(=O)[nH]1 | EC50 | HFF | plaque count | Isolate Helebrand (wild type) | 6.91 µM
OC[C@H]1O[C@@H](c2c(Cl)c(Cl)cc3nc(Cl)cn23)[C@H](O)[C@@H]1O | EC50 |  | plaque count |  | >100 µM
Nc1ccn(C[C@H]2COP(=O)(O)CO2)c(=O)n1 | EC50 | HEL | plaque count | DAVIS | 1 µg/mL
OC[C@H]1O[C@@H](n2c(Br)nc3cc(Cl)c(Cl)cc32)[C@H](O)[C@@H]1O | EC90 | HFF | virus yield | TOWNE | 0.48 µM
Nc1nc2c(ncn2COC(CO)CO)c(=O)[nH]1 | EC50 | MRC-5 | hybridisation | 9330REC5 (HIS520GLU) | 1.6 µM
COC(=O)C(C)NP(=O)(OC[C@@H]1C/C1=C\n1cc(N)c(=O)[nH]c1=O)Oc1ccccc1 | EC50 | HFF | plaque count | TOWNE | >100 µM
CC(=O)O[C@@H]1CC[C@H](O)[C@@]2(C)CC/C(C(C)C)=C\C=C(/C)CCC1O2 | EC50 | HEL |  |  | 8 µg/mL
Nc1nc2c(ncn2COC(CO)CO)c(=O)[nH]1 | EC50 |  | plaque count | VR6264 (ganciclovir-resistant) | 15 µM
C=C1[C@H](CO)[C@H]1Cn1cnc2c(Cl)ncnc21 | EC50 |  |  |  | >100 µM
COC(=O)[C@H](C)NP(=O)(OC[C@H]1C/C1=C/n1cnc2c(OC)nc(N)nc21)Oc1ccccc1 | EC50 | HFF |  | TOWNE | 0.16 µM
O=C(Nc1cccc(F)c1)Nc1cccc(C2=NNC(=O)C23CCCCC3)c1 | EC50 | NHDF | cytopathic effect |  | 1.9 µM
CC(C)NS(=O)(=O)c1ccccc1-c1n[nH]c(=S)o1 | EC50 | HEL | plaque count | DAVIS | >100 µM
COc1nc(N)nc2c1ncn2/C=C1/C[C@H]1CO | EC50 | HFF |  | AD169 | 5.3 µM
CCCCCCCCCCC#Cc1c[nH]c(=O)[nH]c1=O | EC50 | HEL | cytopathic effect | DAVIS | >80 µM
C=C1[C@H](CO)[C@H]1Cn1cnc2c(=O)[nH]c(N)nc21 | EC50 |  |  |  | >100 µM

A second listing of 8 rows from above:

compound | read-out | cells | read by | strain | result
Nc1nc2c(ncn2CC(CO)OCP(=O)(O)O)c(=O)[nH]1 | EC50 | HEL | plaque count | DAVIS | 0.7 µg/mL
C=C1[C@H](CO)[C@H]1Cn1cnc2c(=O)[nH]c(N)nc21 | EC50 |  |  |  | >100 µM
Nc1ncnc2c1ncn2C[C@@H](CO)OCP(=O)(O)O | EC50 | HEL | plaque count | AD169 | 0.21 µM
O=c1[nH]c(=O)n([C@H]2CO[C@H](CO)S2)cc1/C=C/Br | EC50 |  |  | WFI | >100 µg/mL
Nc1nccc2c1ncn2C[C@@H](CO)OCP(=O)(O)O | EC50 | HEL | plaque count | AD169 | 0.18 µM
CCCCCCCC/C=C/CCCCCCCC(=O)O | EC50 | HEL | cytopathic effect | AD169 | >100 µM
CCCCCCCCCCC#Cc1c[nH]c(=O)[nH]c1=O | EC50 | HEL | cytopathic effect | DAVIS | >80 µM
C[C@@H]1O[C@@H](n2c(Cl)nc3cc(Cl)c(Cl)cc32)[C@H](O)[C@@H]1O | EC50 |  | plaque count | AD169 | 0.82 µM

ECn: concentration that inhibits the pathogen or its effect by n%. Blank or dashed fields: not listed here. Two numbers with a dash give a range or band.